A mixed list of measured activities; the numbers were collected in NIAID ChemDB.

Shared fields: tests in culture; organism: Candida albicans; measure: MIC

a–b is a range or a potency band.

compound | strain | method | value
COc1ccc2c(Cc3ccc(C(C)(C)C)cc3)c3[n+](cc2c1OC)CCc1cc2c(cc1-3)OCO2 | ATCC44373 |  | 1.56 µg/mL
N#Cc1ccc(Nc2nc(Oc3cccc4cccnc34)nc(N3CCN(c4cccc(Cl)c4)CC3)n2)cc1C(F)(F)F | MTCC 183 | agar | 12.5 µg/mL
C[C@H](n1nnc(CCN2CCN(c3ccc(Cl)cc3)CC2)n1)[C@](O)(Cn1cncn1)c1ccc(F)cc1F |  |  | 2 µg/mL
CCN1CC(C)(C)OC(=O)C1CC(=O)NCc1cccc(C)c1 | SC5314 | broth dilution | 12.5 µg/mL
CCCCCOc1ccc(-c2ccc(-c3ccc(C(=O)N[C@H]4CCCNC(=O)C5C[C@H](NC(=O)NCCN(C)C)CN5C(=O)C(C(C)O)NC(=O)C(CCc5ccc(O)cc5)NC(=O)C5C[C@@H](O)CN5C(=O)C(C(C)O)NC4=O)cc3)cc2)cc1 | ATCC 62376 |  | 0.78 µg/mL
COc1cc(O)c2c(c1)C(=O)c1c(cc3c(c1O)-c1c(cc(C)c(C(=O)N[C@H](C)C(=O)O)c1O)[C@H](O[C@@H]1O[C@H](C)[C@H](O)[C@H](O[C@@H]4OC[C@@H](O)[C@H](O)[C@H]4O)[C@H]1O)[C@H]3O)C2=O | TIMM1768 |  | 12.5 µg/mL
CCN1CC(CC)(CC)OC(=O)C1CC(=O)Nc1ccc(C(C)C)cc1 | SC5314 | broth dilution | >25 µg/mL
CC1=C(Sc2ccc(C)cc2)C(=O)c2sc(C)nc2C1=O | ATCC20231 |  | 50 µg/mL
CS(C)=O | CA6 |  | 250 µg/mL
N#Cc1ccc(Nc2nc(Oc3cccc4cccnc34)nc(N3CCN(c4ncccn4)CC3)n2)cc1C(F)(F)F | MTCC 183 | agar | 6.25 µg/mL
CC(C)c1ccc(NC(=O)CC2C(=O)OC(C)(C)CN2C2CC2)cc1 | SC5314 | broth dilution | >25 µg/mL
CCCCOC1Sc2ccc(C(Cn3ccnc3)OCc3ccc(Cl)cc3)cc2N(C)C1=O | CA6 |  | 1.8–3.9 µg/mL
Cc1nn(-c2ccccc2)c2c1C(c1ccc(Cl)cc1)c1c(nc(=S)[nH]c1N)O2 | MTCC 227 |  | 250 µg/mL
CCCCCOc1ccc(N(C)CCN(C)c2ccc(C(=O)N[C@H]3CCCNC(=O)C4C[C@H](N)CN4C(=O)C(C(C)O)NC(=O)C(CCc4ccc(O)cc4)NC(=O)C4C[C@@H](O)CN4C(=O)C(C(C)O)NC3=O)cc2)cc1 | ATCC CCH442 |  | 1.56 µg/mL
CCCCOc1ccccc1N1CCN(CCc2nnnn2C(C)C(O)(Cn2cncn2)c2ccc(F)cc2F)CC1 | V-01-191A-261 (resistant) |  | 1 µg/mL
CN1CCN(c2nc(Nc3ccc(C#N)c(C(F)(F)F)c3)nc(Oc3cccc4cccnc34)n2)CC1 | MTCC 183 | agar | 100 µg/mL
Cc1c(O)cccc1C(=O)N[C@@H](CSc1ccccc1)[C@H](O)CN1C[C@H]2CCCC[C@H]2C[C@H]1C(=O)NC(C)(C)C | I121 |  | 64 µg/mL
Cc1nn(-c2ccccc2)c2c1C(c1ccccc1)c1c(nc(=S)[nH]c1N)O2 | MTCC 227 |  | 200 µg/mL
CCCCCCCCOc1ccc(N2CCN(c3ccc(C(=O)N[C@H]4CCCNC(=O)C5C[C@H](N)CN5C(=O)C(C(C)O)NC(=O)C(Cc5ccc(C)cc5)NC(=O)C5CCCN5C(=O)C(C(C)O)NC4=O)cc3)CC2)cc1 | ATCC 10231 |  | 3.12 µg/mL
N#Cc1ccc(Nc2nc(Oc3cccc4cccnc34)nc(N3CCCCC3)n2)cc1C(F)(F)F | MTCC 183 | agar | 25 µg/mL
CCCCOc1ccccc1N1CCN(CCc2nnn(C(C)C(O)(Cn3cncn3)c3ccc(F)cc3F)n2)CC1 | V-01-191A-261 (resistant) |  | 2 µg/mL
CCCCCCCCCCCC[N+](C)(C)CSCCCCCCCC | ATCC 10231 |  | 24.5 µM
O=C1C=C(Nc2ccc(C(F)(F)F)cc2)C(=O)c2scnc21 | ATCC20231 |  | 1.25 µg/mL
C[C@H](n1nnnc1CCN1CCN(c2ccc(F)cc2)CC1)[C@](O)(Cn1cncn1)c1ccc(F)cc1F |  |  | 2 µg/mL
CC1=C(Nc2ccc(Cl)cc2)C(=O)c2sc(C)nc2C1=O | ATCC20231 |  | 50 µg/mL
CCCCCCCCCCCC[N+](C)(C)COCCC(C)C | ATCC 10231 |  | 28.6 µM
CCCCCOc1ccc(-c2ccc(-c3ccc(C(=O)N[C@H]4CCCNC(=O)C5C[C@H](NC(=O)CCc6ccccc6)CN5C(=O)C(C(C)O)NC(=O)C(CCc5ccc(O)cc5)NC(=O)C5C[C@@H](O)CN5C(=O)C(C(C)O)NC4=O)cc3)cc2)cc1 | ATCC CCH442 |  | 25 µg/mL
CCCCCCCCCCCC[N+](C)(C)COCCCC | ATCC 10231 |  | 74 µM
C[C@H](n1nnnc1CCN1CCN(c2ccccn2)CC1)[C@](O)(Cn1cncn1)c1ccc(F)cc1F |  |  | 8 µg/mL
CCN1CC(C)(C)OC(=O)C1CC(=O)NCCc1ccccc1 | SC5314 | broth dilution | >25 µg/mL
CC(=O)Oc1ccc(C(Br)C(Br)c2ccc([N+](=O)[O-])cc2[N+](=O)[O-])cc1 | PCM 1409 PZH |  | 100 µg/mL
CCCCCOc1ccc(-c2ccc(-c3ccc(C(=O)N[C@H]4CCCNC(=O)C5C[C@H](NCC(N)CO)CN5C(=O)C(C(C)O)NC(=O)C(CCc5ccc(O)cc5)NC(=O)C5C[C@@H](O)CN5C(=O)C(C(C)O)NC4=O)cc3)cc2)cc1 | ATCC CCH442 |  | 0.39 µg/mL
CC(=O)Oc1cccc(C(Br)C(Br)c2ccc([N+](=O)[O-])cc2[N+](=O)[O-])c1 | PCM 1409 PZH |  | 75 µg/mL
C[C@H]1[C@H](O)[C@@H](C)/C=C/C=C/C=C/C=C/C=C/C=C/C=C/[C@H](O[C@@H]2O[C@H](C)[C@@H](O)[C@H](N)[C@@H]2O)C[C@@H]2O[C@](O)(C[C@@H](O)C[C@@H](O)CC[C@H](O)[C@@H](O)C[C@@H](O)CC(=O)O[C@H]1C)C[C@H](O)[C@H]2C(=O)O | SC5314 | broth dilution | 1.6 µg/mL
CCCCCOc1ccc(-c2ccc(-c3ccc(C(=O)N[C@H]4CCCNC(=O)C5C[C@H](N=C(N)N)CN5C(=O)C(C(C)O)NC(=O)C(CCc5ccc(O)cc5)NC(=O)C5C[C@@H](O)CN5C(=O)C(C(C)O)NC4=O)cc3)cc2)cc1 | ATCC CCH442 |  | 0.2 µg/mL
CCCCCCCCCCCC[N+](C)(C)CSCCCC | ATCC 10231 |  | 142 µM
CCCCOC1Oc2ccc(C(Cn3ccnc3)OCc3ccc(Cl)cc3)cc2N(C)C1=O | CA6 |  | 125 µg/mL
CC(C)c1ccc(NC(=O)CC2C(=O)OC(C)(C)CN2C2CCCC2)cc1 | SC5314 | broth dilution | >25 µg/mL
C[C@H](n1nnc(CCN2CCN(c3ccc(F)cc3)CC2)n1)[C@](O)(Cn1cncn1)c1ccc(F)cc1F | V-01-191A-261 (resistant) |  | 8 µg/mL
C=C1C(=O)ON(C)C1C(C)CCC |  |  | 37.5 µg/mL
CC1(C)S[C@@H]2[C@H](NC(=O)[C@H](N)c3ccc(O)cc3)C(=O)N2[C@H]1C(=O)O | MTCC 183 | visual reading | 660 µg/mL
Cc1nn(-c2ccccc2)c2c1C(c1ccccc1Cl)c1c(nc(=O)[nH]c1N)O2 | MTCC 227 |  | 500 µg/mL
C[C@H](n1nnc(CCN2CCN(c3ccccn3)CC2)n1)[C@](O)(Cn1cncn1)c1ccc(F)cc1F |  |  | 8 µg/mL
Cc1nc2c(s1)C(=O)C(Sc1ccccc1)=C(O)C2=O | ATCC20231 |  | >100 µg/mL
Cc1nn(-c2ccccc2)c2c1C(c1cccc(Br)c1)c1c(nc(=S)[nH]c1N)O2 | MTCC 227 |  | 1000 µg/mL
COc1ccccc1N1CCN(CCc2nnnn2[C@@H](C)[C@](O)(Cn2cncn2)c2ccc(F)cc2F)CC1 |  |  | 8 µg/mL
CCN1CC(C)(C)OC(=O)C1CC(=O)NC1CCCCC1 | SC5314 | broth dilution | 50 µg/mL

The last 6 rows once more:

compound	strain	method	value
Cc1nn(-c2ccccc2)c2c1C(c1ccccc1Cl)c1c(nc(=O)[nH]c1N)O2	MTCC 227		500 µg/mL
C[C@H](n1nnc(CCN2CCN(c3ccccn3)CC2)n1)[C@](O)(Cn1cncn1)c1ccc(F)cc1F			8 µg/mL
Cc1nc2c(s1)C(=O)C(Sc1ccccc1)=C(O)C2=O	ATCC20231		>100 µg/mL
Cc1nn(-c2ccccc2)c2c1C(c1cccc(Br)c1)c1c(nc(=S)[nH]c1N)O2	MTCC 227		1000 µg/mL
COc1ccccc1N1CCN(CCc2nnnn2[C@@H](C)[C@](O)(Cn2cncn2)c2ccc(F)cc2F)CC1			8 µg/mL
CCN1CC(C)(C)OC(=O)C1CC(=O)NC1CCCCC1	SC5314	broth dilution	50 µg/mL

Conditions beyond the fields shown may differ between rows. Blank or dashed fields: not listed here.